Pooled drug test results. Numbers come from NIAID ChemDB, via PubChem.

All rows: target-level tests

Inhibition is in % at the dose shown (toxicity tests: loss of growth or viability).

smiles | read-out | target | strain or isolate | dose | organism | method | value
CCOC(=O)c1cnn2c(-c3ccc(F)cc3)cc(-c3ccc(F)cc3)nc12 | IC50 | RNA-dependent RNA polymerase | - | - | Hepatitis C virus | - | >10 µM
O=C(O)CNC(=O)c1cn2ccn(Cc3cccc(Cl)c3)c(=O)c2c(O)c1=O | IC50 | Integrase | - | - | HIV-1 | ELISA | 0.01–0.1 µM
Fc1ccc(N2CCN(c3cncc(-c4cccc5ccccc45)n3)CC2)c(F)c1 | inhibition | UL97 kinase | - | 10 µM | Cytomegalovirus | - | >15%
CCC(CC)Cc1c(-c2ccc(OCc3ccccc3)cc2)nc2cc(C(=O)O)[nH]n2c1=O | IC50 | RNA-dependent RNA polymerase | - | - | Hepatitis C virus | - | 1–10 µM
O=C1c2c(O)c(=O)c(-c3nccs3)cn2CCN1Cc1cccc(F)c1 | IC50 | Integrase | - | - | HIV-1 | ELISA | 0.01–0.1 µM
COc1ccccc1CC1CCc2nc(N)nc(N)c2C1 | IC50 | Dihydrofolate reductase | TYPE 1 | - | Cryptosporidium parvum | - | 0.18 µM
COc1cccc(COc2cccc(-c3cnc4c(C(=O)O)cnn4c3C3CCCCC3)c2)c1 | IC50 | RNA-dependent RNA polymerase | - | - | Hepatitis C virus | - | 1–10 µM
COc1cc(N(C)Cc2csc3nc(N)nc(N)c23)cc(OC)c1OC | IC50 | Dihydrofolate reductase | TYPE 1 | - | Cryptosporidium parvum | - | >10 µM
O=c1ccn2ccn(CCCc3ccccc3Cl)c(=O)c2c1O | IC50 | Integrase | - | - | HIV-1 | ELISA | 0.01–0.1 µM
Cc1cccc(N2CCN(c3cncc(-c4ccoc4)n3)CC2)c1C | IC50 | UL97 kinase | - | - | Cytomegalovirus | - | <100 µM
O=C(OCc1ccccc1)C(Cc1ccccc1)c1cc(=O)c(O)c2n1CCN(Cc1ccc(Cl)c(Cl)c1)C2=O | IC50 | Integrase | - | - | HIV-1 | ELISA | 0.01–0.1 µM
c1coc(CNc2nccnc2-c2cc3ccccc3o2)c1 | inhibition | UL97 kinase | - | 10 µM | Cytomegalovirus | - | >15%
O=C1c2c(O)c(=O)c(-c3nccs3)cn2CCN1CCCc1ccccc1F | IC50 | Integrase | - | - | HIV-1 | ELISA | 0.01–0.1 µM
COc1cc(NCc2ccc3nc(N)nc(N)c3c2Cl)c(Br)c(OC)c1OC | IC50 | Dihydrofolate reductase | TYPE 1 | - | Cryptosporidium parvum | - | >10 µM
CS(=O)(=O)c1ccc(-c2ccc(-c3nc4cc(C(=O)O)[nH]n4c(=O)c3C3CCCCC3)cc2)cc1 | IC50 | RNA-dependent RNA polymerase | - | - | Hepatitis C virus | - | 1–10 µM
COc1ccnc(CNC(=O)c2cn3c(c(O)c2=O)C(=O)N(Cc2ccc(F)cc2)CC3)n1 | IC50 | Integrase | - | - | HIV-1 | ELISA | 0.01–0.1 µM
COc1ccc(N2CCN(c3cncc(-c4ccsc4)n3)CC2)cc1OC | IC50 | UL97 kinase | - | - | Cytomegalovirus | - | <10 µM
COc1ccc(Oc2ccc(-c3cnc4c(-c5nn[nH]n5)cnn4c3C3CCCCC3)cc2)cc1F | IC50 | RNA-dependent RNA polymerase | - | - | Hepatitis C virus | - | <1 µM
c1cncc(-c2cncc(N3CCN(c4ccncc4)CC3)n2)c1 | inhibition | UL97 kinase | - | 10 µM | Cytomegalovirus | - | >15%
c1ccc(Oc2cccc(-c3c(-c4ccccc4)cnc4c(-c5nn[nH]n5)cnn34)c2)cc1 | IC50 | RNA-dependent RNA polymerase | - | - | Hepatitis C virus | - | >10 µM
CC(=O)c1ccc(N2CCN(c3cncc(-c4ccccc4C(C)=O)n3)CC2)cc1 | inhibition | UL97 kinase | - | 10 µM | Cytomegalovirus | - | >15%
c1ccc(COc2ccc(-c3cnc4c(-c5nn[nH]n5)cnn4c3N3CCOCC3)cc2)cc1 | IC50 | RNA-dependent RNA polymerase | - | - | Hepatitis C virus | - | >10 µM
Cc1cccc(-c2cncc(N3CCN(c4cnccn4)CC3)n2)c1 | IC50 | UL97 kinase | - | - | Cytomegalovirus | - | <10 µM
CC(C)Oc1cc(Cl)cc(CN2CCn3cc(-c4nccs4)c(=O)c(O)c3C2=O)c1 | IC50 | Integrase | - | - | HIV-1 | ELISA | 0.01–0.1 µM
Cc1c(Cc2ccc(Cl)c(Cl)c2)sc2nc(N)nc(N)c12 | IC50 | Dihydrofolate reductase | TYPE 1 | - | Cryptosporidium parvum | - | >10 µM
CNC(=O)c1cc(F)ccc1CCCN1CCn2cc(-c3nccs3)c(=O)c(O)c2C1=O | IC50 | Integrase | - | - | HIV-1 | ELISA | 0.01–0.1 µM
CCOc1ccccc1-c1cncc(N2CCN(c3ccc(C)cc3)CC2)n1 | inhibition | UL97 kinase | - | 10 µM | Cytomegalovirus | - | >15%
O=C1c2c(O)c(=O)ccn2CCN1Cc1ccc(Cl)cc1 | IC50 | Integrase | - | - | HIV-1 | ELISA | 0.01–0.1 µM
COc1cccc(-c2cncc(N3CCN(c4ccc(OC)c(OC)c4)CC3)n2)c1 | IC50 | UL97 kinase | - | - | Cytomegalovirus | - | <10 µM
CC(C)=CCCc1c(-c2ccc(OCc3ccccc3)cc2)nc2cc(C(=O)O)[nH]n2c1=O | IC50 | RNA-dependent RNA polymerase | - | - | Hepatitis C virus | - | 1–10 µM

ICn: concentration for n% inhibition. Rows are shuffled and stem from different studies. a–b is a range or a potency band. An empty or dashed field is not shown.